Assay results: PMC12254355 (Nature Communications, 2025)

System: E. coli AIC222 (polymyxin resistant; colistin-resistant strain)
Assay: Broth microdilution MIC
Conditions: source data of Figure 2a; 80 appears to be a plotting value for no activity at the highest concentration tested

SMILES	MIC, E. coli AIC222
CC[C@H](C)[C@H](NC(=O)[C@H](Cc1ccccc1)NC(=O)[C@H](CCCCN)NC(=O)[C@H](CO)NC(=O)[C@H](CC(N)=O)NC(=O)[C@H](CC(C)C)NC(=O)[C@H](CCSC)NC(=O)[C@H](CCCCN)NC(=O)[C@H](C)NC(=O)[C@H](CCCNC(=N)N)NC(=O)[C@@H](N)CC(C)C)C(=O)N[C@@H](CCCCN)C(=O)N[C@@H](CC(C)C)C(=O)O [Conoserver-5]	80
CSCC[C@H](NC(=O)[C@H](CCCCN)NC(=O)[C@H](C)NC(=O)[C@H](CCCNC(=N)N)NC(=O)[C@H](CC(C)C)NC(=O)[C@@H](N)CCCNC(=N)N)C(=O)N[C@@H](CCCNC(=N)N)C(=O)N[C@@H](CC(N)=O)C(=O)N[C@@H](CO)C(=O)N[C@@H](CCCCN)C(=O)N[C@@H](CC(C)C)C(=O)N[C@@H](Cc1ccccc1)C(=O)N[C@@H](CCCCN)C(=O)N[C@@H](CC(C)C)C(=O)N[C@H](C(=O)N[C@@H](CCCCN)C(=O)N[C@@H](CCCNC(=N)N)C(=O)O)[C@@H](C)O [Conoserver-10]	80
